# Like-named read-outs stand apart in the source and are kept apart here. No dose or concentration is given here for some results.
# Test system: HIV-1
# Assay type: in vivo, adults infected with HIV-1
# Details: IQpatient (Cmin / fold change) related to IQref, 17 patients
smiles,measurement,setting,value
"CC(C)CN(C[C@@H](O)[C@H](Cc1ccccc1)NC(=O)O[C@H]1CCOC1)S(=O)(=O)c1ccc(N)cc1 [Amprenavir, amprenavir]","NIQ, median",,2.8
same,"NIQ, range",,(0.3-41.1)
same,"NIQ, range",listed as APV,0.3-41.1
